Target: recombinant human acetylcholinesterase (rhAChE) (Homo sapiens, UniProt P22303)
Settings: FIG. 7

Sequences of proteins named here, by UniProt entry; tags and fusion partners are left off. Residues count along the entry.
UniProt P22303, 32-614 limits assumed: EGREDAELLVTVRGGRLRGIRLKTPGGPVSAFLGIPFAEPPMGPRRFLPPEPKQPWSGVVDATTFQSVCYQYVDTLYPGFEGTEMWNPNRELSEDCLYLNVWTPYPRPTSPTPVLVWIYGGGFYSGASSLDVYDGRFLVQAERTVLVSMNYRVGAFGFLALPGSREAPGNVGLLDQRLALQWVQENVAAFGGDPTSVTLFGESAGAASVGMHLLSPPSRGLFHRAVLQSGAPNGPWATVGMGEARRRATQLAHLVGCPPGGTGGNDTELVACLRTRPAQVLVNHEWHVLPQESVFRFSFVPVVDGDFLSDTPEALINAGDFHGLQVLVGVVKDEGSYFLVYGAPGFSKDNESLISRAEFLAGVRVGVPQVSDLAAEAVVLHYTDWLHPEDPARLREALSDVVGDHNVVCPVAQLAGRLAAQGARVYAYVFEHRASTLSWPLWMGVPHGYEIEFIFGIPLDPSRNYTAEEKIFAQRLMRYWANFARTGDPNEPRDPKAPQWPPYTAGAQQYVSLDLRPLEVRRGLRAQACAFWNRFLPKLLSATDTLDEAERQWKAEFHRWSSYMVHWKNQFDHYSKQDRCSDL

## CCOP(=O)(OCC)Oc1ccc([N+](=O)[O-])cc1
  inhibition of AChE activity (EGFP-NFATc1 nuclear translocation): inhibit the activity of AChE in a concentration-dependent manner
